Test results published in US20260382604A1, “Inhibitors of Type 1 Methionyl-tRNA Synthetase and Methods of Using Them” (published 2026).
pEC50: −log10 of the molar value. Where “and” joins values, the source holds several entries; their conditions need not be identical. Identical values can stand only once.

Legend:
T. brucei = assay: Trypanosoma brucei growth inhibition assay; conditions: read-out: T. brucei EC50; in vitro growth inhibition
Method: Trypanosoma brucei growth inhibition assay: Compounds are tested for anti-trypanosomal activity against Trypanosoma brucei cells (BSF 427 parasites) in HMI-9 media containing 10% heat inactivated FBS 100 U mL^−1 penicillin/100 μg mL^−1 streptomycin at 37 °C with 5% CO2. Test compounds are assayed in a 96-well format in triplicate with serial 3-fold dilutions of compound or a pentamidine control against an initial inoculum of 10 000 cells/well and quantified at 48 hours with Alamar Blue (Invitrogen, Waltham, MA).

S. aureus [1] = assay: Susceptibility testing (MIC), S. aureus; conditions: ATCC29213
Excerpt: (§1) Media and culture conditions. Mueller Hinton broth (MHB), cation adjusted Mueller Hinton broth (CA-MHB), Todd Hewitt Broth (THB) and Brain Heart Infusion broth (BHI) were purchased from Becton Dickinson (Franklin Lakes, NJ). Tryptic soy agar (TSA) plates and TSA with 5% sheep blood plates were purchased from Remel (San Diego, CA). MHB was used to assay all Staphylococcus aureus strains. CA-MHB was used for Staphylococcus epidermidis, Enterococcus faecalis, Enterococcus faecium, Escherichia coil, and Pseudomonas aeruginosa. THB broth supplemented with 1% yeast extract was used for Streptococcus pneumoniae and Streptococcus pyogenes. Staphylococcus. Enterococcus, Escherichia, and Pseudomonas strains were cultured at 37 °C with ambient air. Streptococcus strains were cultured in 37 °C with 5% CO2. Separate conditions for radiolabeled precursor uptake assays are described below.
(§2) Susceptibility testing: Minimum inhibitory concentration (MIC) determinations are performed in triplicate in 96-well round bottom microtiter plates (Corning, Corning NY) as described by the Clinical and Laboratory Standards Institute (CLSI). Serial two-fold dilutions of compounds are added to plates in 50 μL volumes. An additional 50 μL of media containing bacterial cells (1×10^6 CFUs/mL) is then added to each well. Maximum DMSO concentrations are 0.5%. Plates are incubated at 37 °C for at least 18 h before reading the susceptibility result by optical absorbance (OD600) using a BioTek ELx800. The lowest concentration causing ≥90% growth inhibition compared to the untreated control is recorded as the MIC (and also corresponded to the visual MIC). MICs are measured at least twice and the higher value (if different) is recorded herein.

MRSA = assay: Susceptibility testing (MIC), MRSA
Excerpt: as §1, §2

S. pyogenes = assay: Susceptibility testing (MIC), S. pyogenes; conditions: ATCC19615
Excerpt: as §1, §2

T. cruzi = T. cruzi growth inhibition assay; conditions: read-out: T. cruzi EC50; in vitro growth inhibition (Table 4)
Method: Trypanosoma crud growth inhibition assay: The Tulahuen strain of T. cruzi that expresses the Escherichia coli 3-galactosidase gene was utilized (PMID: 8913471). Mammalian stages of parasites were grown at 37 °C on monolayers of murine 3T3 fibroblasts in RPMI 1640 (Biowhittaker Inc., Walkersville, Md.) with 10% fetal bovine serum, penicillin, streptomycin, and glutamine. Growth inhibition assays were performed in 96-well tissue culture plates (Costar, Cambridge, Mass.). First, 3T3 fibroblasts were inoculated at 103/well using RPMI 1640 without phenol red (Biowhittaker Inc.) plus 10% fetal bovine serum and glutamine. The next day, the plates were infected with T. cruzi trypomastigotes at 104/well. After 4 h, drugs were added in serial dilutions to give a final volume of 200 μl/well. The plates were incubated at 37 °C in 5% CO2 atmosphere for 6 days. At this time. CPRG (100 μM final) and Nonidet P-40 (0.1% final) (Sigma Chemical Co., St. Louis, Mo.) were added and the plates were incubated at 37 °C for approximately 4 h. Wells with 0-galactosidase activity turned the media from yellow to red, and this was quantified on an enzyme-linked immunosorbent assay reader at A570.

S. aureus [2] = assay: Serum shift MIC, S. aureus; conditions: serum shift procedure, with serum (50% human serum)
Excerpt: as §1, §2
Serum shift assays: To assess the role of protein binding on compound susceptibility, MIC determinations are performed in triplicate in the presence and absence of 50% human serum. Serial threefold dilutions of 2× compound are generated in MHB or THY (depending on organism) and aliquoted onto 96 well plates with a DMSO limit of 0.5%. Bacteria are adjusted to 1*10^8 CFUs/mL in media, then further diluted 1:100 in media and 100% heat deactivated filter sterilized pooled human serum. Fifty microliters are added to each well of the corresponding plates, and the plates are incubated at 37 °C for ~20 h. The lowest concentration causing ≥90% growth inhibition is recorded as the MIC.

| SMILES | pEC50 (T. brucei) | S. aureus (ATCC29213) MIC (S. aureus [1]) [µg/mL] | MRSA (ATCC33591) MIC (MRSA) | S. pyogenes (ATCC19615) MIC (S. pyogenes) | pEC50 (T. cruzi) | S. aureus MIC w Serum (S. aureus [2]) [µg/mL] |
| --- | --- | --- | --- | --- | --- | --- |
| COc1cc(Cl)c(-c2cnc(NCC(C)(C)N)c3nn(Cc4nc5nc(Cl)ccc5[nH]4)cc23)cc1OC | 7.04 | >8.00 |  |  |  |  |
| COc1cc(Cl)c(-c2cncc3nn(Cc4nc5nc(Cl)ccc5[nH]4)cc23)cc1OC | 8.03 |  | 0.111 µg/mL and 0.0713 µg/mL | 0.395 µg/mL |  |  |
| COc1cc(Cl)c(-c2cnc(N3CCN(S(N)(=O)=O)CC3)c3nn(Cc4nc5nc(Cl)ccc5[nH]4)cc23)cc1OC |  | 0.699 | 0.441 µg/mL | 0.276 µg/mL | < 6.00 |  |
| COc1cc(Cl)c(-c2cnc(N3CCN(C(=O)CO)CC3)c3nn(Cc4nc5nc(Cl)ccc5[nH]4)cc23)cc1OC |  | 0.328 | 0.216 µg/mL | 0.207 µg/mL | 6.10 |  |
| COc1cc(Cl)c(-c2cnc(NC3CCOCC3)c3nn(Cc4nc5ccc(Cl)nc5[nH]4)cc23)cc1OC | 8.56 | 0.349 | 0.463 µg/mL | 1.32 µg/mL |  |  |
| COc1cc(Cl)c(-c2cnc(Cl)c3nn(Cc4nc5nc(Cl)ccc5[nH]4)cc23)cc1OC | 7.59 and 7.83 and 7.88 |  | 0.0415 µg/mL | 0.499 µg/mL |  |  |
| COc1cc(Cl)c(-c2cnc(OC)c3nn(Cc4nc5nc(Cl)ccc5[nH]4)cc23)cc1OC |  | 0.205 | 0.18 µg/mL |  | 7.62 and 7.77 |  |
| COc1cc(Cl)c(-c2cnc(NCCNC(=O)OC(C)(C)C)c3nn(Cc4nc5nc(Cl)ccc5[nH]4)cc23)cc1OC |  | 0.994 | 2.4 µg/mL | >4.00 µg/mL | 6.22 |  |
| COc1cc(Cl)c(-c2cnc(SC)c3nn(Cc4nc5nc(Cl)ccc5[nH]4)cc23)cc1OC |  | <0.0312 | 0.07 µg/mL | 0.0697 µg/mL | 7.53 and 7.29 and 7.28 |  |
| COc1cc(Cl)c(-c2cnc(OCC(C)(C)O)c3nn(Cc4nc5nc(Cl)ccc5[nH]4)cc23)cc1OC |  | 0.292 | 0.337 µg/mL | 0.197 µg/mL | 6.54 |  |
| COc1cc(Cl)c(-c2cnc(N3CCN(S(=O)(=O)CCl)CC3)c3nn(Cc4nc5nc(Cl)ccc5[nH]4)cc23)cc1OC |  | 0.0958 | 0.153 µg/mL | 0.108 µg/mL | 6.93 |  |
| COc1cc(Cl)c(-c2cnc(N3CCN(S(C)(=O)=O)CC3)c3nn(Cc4nc5nc(Cl)ccc5[nH]4)cc23)cc1OC |  | 0.0969 | 0.174 µg/mL | 0.237 µg/mL | 6.75 |  |
| COc1cc(Cl)c(-c2c(Cl)ncc3nn(Cc4nc5ccc(Cl)nc5[nH]4)cc23)cc1OC | 7.74 | 0.314 | 0.504 µg/mL | 1.82 µg/mL |  |  |
| COc1cc(Cl)c(-c2cnc(OCCO)c3nn(Cc4nc5nc(Cl)ccc5[nH]4)cc23)cc1OC |  | 0.214 | 0.216 µg/mL | 0.225 µg/mL | 6.28 |  |
| COc1cc(Cl)c(-c2cncc3nn(Cc4nc5nc(F)ccc5[nH]4)cc23)cc1OC | 8.25 and 8.06 | 0.0583 |  | 0.473 µg/mL and 0.246 µg/mL |  |  |
| COc1cc(Cl)c(-c2cnc(Cl)c3nn(Cc4nc5nc(F)ccc5[nH]4)cc23)cc1OC | 7.85 | 0.104 | 0.0658 µg/mL | 0.507 µg/mL |  |  |
| CCOc1ncc(-c2cc(OC)c(OC)cc2Cl)c2cn(Cc3nc4ccc(Cl)nc4[nH]3)nc12 | 8.40 | 0.167 | 0.271 µg/mL | 0.518 µg/mL |  |  |
| COc1cc(Cl)c(-c2cnc(N3CCS(=O)(=O)CC3)c3nn(Cc4nc5nc(Cl)ccc5[nH]4)cc23)cc1OC |  | 0.0835 | 0.072 µg/mL | 0.12 µg/mL | 6.48 |  |
| COc1ccc(-c2cccc3nn(Cc4nc5nc(Cl)ccc5[nH]4)cc23)c(Cl)c1 |  |  |  |  |  | 16 |
| COc1cc(Cl)c(-c2cnc(N3CCC(F)(F)CC3)c3nn(Cc4nc5ccc(Cl)nc5[nH]4)cc23)cc1OC | 8.97 | 0.113 | 0.11 µg/mL | 0.544 µg/mL |  |  |
| COc1cc(Cl)c(-c2cnc(N3CC4CCC(C3)O4)c3nn(Cc4nc5ccc(Cl)nc5[nH]4)cc23)cc1OC | > 9.04 | 0.11 | 0.123 µg/mL | 0.242 µg/mL |  |  |
| COc1cc(Cl)c(-c2cnc(N3CCN(C(=O)COC(C)=O)CC3)c3nn(Cc4nc5nc(Cl)ccc5[nH]4)cc23)cc1OC |  | 0.286 | 0.545 µg/mL | 0.201 µg/mL | 6.11 |  |
| COc1cc(Cl)c(-c2cnc(NCCO)c3nn(Cc4nc5nc(Cl)ccc5[nH]4)cc23)cc1OC | 7.59 and 7.63 | 1.16 | 1.09 µg/mL | 1.04 µg/mL |  |  |
| COc1cc(Cl)c(-c2cnc(N3CCNCC3)c3nn(Cc4nc5nc(Cl)ccc5[nH]4)cc23)cc1OC | 7.62 | 0.724 | 0.718 µg/mL | >4.00 µg/mL |  |  |
| COc1cc(Cl)c(-c2cnc(N3CCC(CO)CC3)c3nn(Cc4nc5nc(Cl)ccc5[nH]4)cc23)cc1OC |  | 0.229 | 0.576 µg/mL | 0.705 µg/mL | 6.36 |  |
